# Assay results as given in paper PMC4547098, “Structural basis of pathogen recognition by an integrated HMA domain in a plant NLR immune receptor” (2015).
# Target: AVR-PikA with non-cleavable C-terminal 6xHis tag (pOPINE) (Magnaporthe oryzae) (UniProt C4B8B8)
# Assay: SPR
substance,measurement,value
Pikp-HMA domain (HMA integrated domain of the rice NLR Pikp-1) (from UniProt E9KPB5 186-258) (domain or fragment),Kd,710 nM
